Compound potency records, mixed from different reports. Data source: NIAID ChemDB in PubChem.

Shared fields: enzyme or target tests; organism: HIV-1; target: Protease; read by: fluorescence; read-out: IC50

a–b is a range or a potency band. ICn: concentration for n% inhibition. Rows are shuffled and stem from different studies.

compound | result
O=C(N[C@@H](Cc1ccccc1)[C@H](Cc1ccccc1)n1cc(CN2CCN(c3ccccc3Cl)CC2)nn1)OC1CCCC1 | <5 µM
O=C1C=CC(=O)c2c(O)ccc(O)c21 | >100 µM
N#Cc1ccccc1O[C@@H]1[C@H](O)[C@@H](O)[C@@H](Oc2ccccc2C#N)CS(=O)(=O)[C@@H]1Cc1ccccc1 | 2–10 µM
CC(C)[C@H](NC(=O)CN1CCOCC1)C(=O)N[C@@H](Cc1ccccc1)C(O)[C@H](Cc1ccccc1)NC(=O)[C@@H](NC(=O)OCc1ccccc1)C(C)C | <0.005 µM
Nc1ccc2c(c1N)C(=O)c1ccccc1C2=O | 100 µM
CCCCCCCCCCCCCCCC(=O)N[C@@H](Cc1ccc(O)cc1)C(=O)N[C@@H](CCC(=O)O)C(=O)N[C@H](C(=O)O)c1ccc(OC(=O)c2ccccc2)cc1 | 0.05 µM
CC(C)[C@H](NC(=O)OCc1cccnc1)C(=O)N[C@@H](Cc1ccccc1)[C@H](O)[C@H](O)[C@H](Cc1ccccc1)NC(=O)[C@@H](NC(=O)OCc1cccnc1)C(C)C | <0.001 µM
O=S1(=O)[C@H](Cc2ccccc2)[C@H](OCc2cccc(OCc3ccccc3)c2)[C@H](O)[C@@H](O)[C@@H](OCc2cccc(OCc3ccccc3)c2)[C@H]1Cc1ccccc1 | <2 µM
NC(Cc1ccccc1)C(O)C(F)(F)C(N)Cc1ccccc1 | <0.005 µM
O=C1c2ccc(O)cc2C(=O)c2ccc(O)cc21 | 18 µM
CCCCCCCCCCCCCCCC(=O)N[C@@H](CO)C(=O)N[C@@H](Cc1ccc(O)cc1)C(=O)N[C@@H](CCC(=O)O)C(=O)N[C@@H](CC(C)C)C(=O)O | ~0.3 µM
O=S1[C@H](Cc2ccccc2)[C@H](OCc2ccccc2)[C@H](O)[C@@H](O)[C@@H](OCc2ccccc2)[C@@H]1Cc1ccccc1 | 2–10 µM
Cc1ccc(Cl)cc1N1CCN(Cc2cn([C@@H](Cc3ccccc3)[C@H](Cc3ccccc3)NC(=O)OCC3CCCC3)nn2)CC1 | <5 µM
O=[N+]([O-])c1cccc(CO[C@@H]2[C@H](O)[C@@H](O)[C@@H](OCc3cccc([N+](=O)[O-])c3)[C@@H](Cc3ccccc3)S(=O)[C@@H]2Cc2ccccc2)c1 | <2 µM
O=C1c2ccccc2C(=O)c2c(Nc3ccc(S(=O)(=O)[O-])cc3)cc(Nc3ccc(S(=O)(=O)[O-])cc3)cc21.[Na+].[Na+] | 3 µM
CCCCCCCCCCCCCCCC(=O)N[C@@H](Cc1ccc(O)cc1)C(=O)N[C@@H](CCC(=O)O)C(=O)N[C@@H](Cc1ccc(-c2ccccc2)cc1)C(=O)O | 0.025 µM
CC(C)[C@H](NC(=O)OCc1ccccc1)C(=O)N[C@@H](Cc1ccccc1)[C@H](O)[C@@H](O)[C@H](Cc1ccccc1)NC(=O)[C@@H](NC(=O)OCc1ccccc1)C(C)C | <0.001 µM
O=S1[C@H](Cc2ccccc2)[C@H](OCc2ccccc2)[C@H](O)[C@@H](O)[C@@H](OCc2ccccc2)[C@H]1Cc1ccccc1 | <2 µM
Cc1ccc(Cl)cc1N1CCN(Cc2cn([C@@H](Cc3ccccc3)[C@H](Cc3ccccc3)NC(=O)NC3CCCC3)nn2)CC1 | >5 µM
O=S1(=O)[C@H](Cc2ccccc2)[C@H](OCc2cccc(O)c2)[C@H](O)[C@@H](O)[C@@H](OCc2cccc(O)c2)[C@H]1Cc1ccccc1 | <2 µM
CC(C)C[C@H](NC(=O)[C@H](CC(=O)O)NC(=O)[C@@H](N)Cc1ccc(O)cc1)C(=O)O | 9 µM
O=C(N[C@@H](Cc1ccccc1)[C@H](Cc1ccccc1)n1cc(CN2CCN(c3cccc(C(F)(F)F)c3)CC2)nn1)OC1CCCC1 | <5 µM
O=C1c2ccccc2C(=O)c2c1ccc(O)c2O | 12 µM

The first 2 rows once more:

compound	result
O=C(N[C@@H](Cc1ccccc1)[C@H](Cc1ccccc1)n1cc(CN2CCN(c3ccccc3Cl)CC2)nn1)OC1CCCC1	<5 µM
O=C1C=CC(=O)c2c(O)ccc(O)c21	>100 µM